Pooled drug test results. Numbers come from NIAID ChemDB, via PubChem.

All rows: tests in culture; agent: HIV-1; measure: fold resistance

Rows are shuffled and stem from different studies. Blank or dashed fields: not listed here. Fold resistance has wild type as its base.

smiles	strain	changes	cells	method	value
CCCc1cc(=O)oc2c3c(c4c(c12)OC(C)(C)CC4)O[C@H](C)[C@@H](C)C3=O	-	RT-M184I	-	cytopathic effect / XTT	<6
CC(C)[C@H](NC(=O)OCc1ccccn1)C(=O)N[C@@H](Cc1ccccc1)[C@@H](O)C[C@H](Cc1ccccc1)NC(=O)OCc1cccnc1	NL4-3	PR-L63P V82T	MT-4	p24	1.875
CCCOC(=O)c1cc(NC(=O)C2=C(C)OCCS2)ccc1Cl	PYR-resistant (RT Y181C)	RT-Y181C	CEM	syncytia	225
Cc1cc(S(N)(=O)=O)ccc1NC(=O)COc1ccc(Cl)cc1C(=O)c1cc(F)cc(C(F)(F)F)c1	HXB2	RT-K103N P225H	HeLa + HELA CD4+	β-galactosidase	~1
O=C1Nc2ccc(Cl)cc2[C@@](/C=C/C2CC2)(C(F)(F)F)N1	-	RT-K103N P225H	-	-	75
CC1=C(C(=O)Nc2ccc(Cl)c(C(=O)OC3CCCCC3)c2)SCCO1	TSAO-resistant (RT E138K)	RT-E138K	CEM	syncytia	87.5
CC(C)=CCOc1cc(NC(=S)c2ccsc2C)ccc1Cl	NL4-3	RT-K101E	CEM + CEM-SS	p24	1
CC(C)=CCOc1cc(NC(=S)c2ccoc2C)ccc1Cl	TIBO R82150-resistant (RT A98G V108I)	RT-A98G V108I	CEM + CEM-SS	cytopathic effect / XTT	30
C=CCO/N=C/c1cc(NC(=S)c2ccoc2C)ccc1Cl	NL4-3	RT-K101E	CEM + CEM-SS	cytopathic effect / XTT	129
O=C1Nc2ccc(Cl)cc2[C@@](C#CC2CC2)(C(F)(F)F)N1	-	RT-K101E	-	-	<6.32
CC(C)c1c(Sc2ccccc2)n(COCCO)c(=O)[nH]c1=O	IIIB TIBO R82913-resistant (RT K103N)	RT-K103N	CEM	syncytia	≥357
CCC(=O)c1ccc(F)c([C@@H]2C[C@@H]2NC(=O)Nc2ccc(C#N)cn2)c1O	LAI	NNRTI-resistant (RT K103N/Y181C)	TZM-bl	β-galactosidase / luminescence	≥250
O=C(O[C@@H]1[C@H](OC(=O)c2ccccc2)[C@@H](CO)O[C@H]1n1cnc2c(N(C(=O)c3ccccc3)C(=O)c3ccccc3)ncnc21)c1ccccc1	NL4-3	Q184H	HeLaP4	β-galactosidase	0.88
C=C(C)[C@@H]1CC[C@]2(C(=O)NCCCCCCCC(=O)N[C@@H](CC(C)C)[C@@H](O)CC(=O)O)CC[C@]3(C)[C@H](CC[C@@H]4[C@@]5(C)CC[C@H](O)C(C)(C)[C@@H]5CC[C@]43C)[C@@H]12	LAI	GP41-E109D A109D	HeLa P4 + HeLa	syncytia	~1
CCc1c(OCC2CCC2)c2cc(F)ccc2[nH]c1=O	NNRTI-resistant (RT K103N G190A)	RT-K103N G190A	HeLa + HeLa-MAGI	β-galactosidase	12.36
Cc1cc(S(N)(=O)=O)ccc1NC(=O)COc1ccc(Cl)cc1C(=O)c1cc(F)cc(F)c1	HXB2	RT-K103N V108I	HeLa + HELA CD4+	β-galactosidase	~1
CC(C)=CCOc1cc(NC(=S)c2ccsc2C)ccc1Cl	NL4-3 (RT L100I)	RT-L100I	CEM + CEM-SS	cytopathic effect / XTT	33.3
CC(C)c1c(Sc2ccccc2)n(COCCO)c(=S)[nH]c1=O	IIIB	Nevirapine resistant (RT Y181C)	CEM	syncytia	50
COc1ccnc2[nH]cc(C(=O)C(=O)N3CCN(C(=O)c4ccccc4)C[C@H]3C)c12	LAI (gp120/gp41 M434I I595F) Recombinant	GP120/GP41-M434I I595F	MT-2	RT activity	497.5
CC(C)c1c(Sc2ccccc2)n(COCc2ccccc2)c(=S)[nH]c1=O	IIIB	RT-Y181C	CEM	syncytia	100
Nc1ncnc2c1ncn2[C@H]1C=C[C@@H](OCP(=O)(O)O)O1	-	RT-M184V	MT-2	cytopathic effect	0.8
Cc1cc(S(N)(=O)=O)ccc1NC(=O)COc1ccc(Cl)cc1C(=O)c1cccc(C#N)n1	HXB2	RT-V106A Y181C	HeLa + HELA CD4+	β-galactosidase	~1
CC(C)O/N=C/c1cc(NC(=S)OC(C)C)ccc1Cl	CALO(RT-T139I)	RT-T139I	CEM + CEM-SS	cytopathic effect / XTT	3
C[C@@H]1CCO[C@H]2Cn3cc(C(=O)NCc4ccc(F)cc4F)c(=O)c(O)c3C(=O)N12	NL4-3	G118R	CBMC	RT activity	6.7
Cc1cc(OCCCS(N)(=O)=O)ccc1NC(=O)COc1ccc(Cl)cc1C(=O)c1cc(F)cc(C(F)(F)F)c1	HXB2 (RT-K103N Y181C) Recombinant	RT-K103N Y181C	HeLa + HELA CD4+	β-galactosidase	~1
N#Cc1cc(Cl)cc(Oc2c(Br)ccc(CC(=O)Nc3ccc(S(N)(=O)=O)cc3Cl)c2F)c1	-	G190A	MT-4	-	<1
CC(C)c1c(Sc2ccccc2)n(COCc2ccccc2)c(=O)[nH]c1=O	IIIB	RT-E138K	CEM	syncytia	6.67
CC=CCOc1cc(NC(=S)c2ccoc2C)ccc1OC	NL4-3	RT-K103N	CEM + CEM-SS	cytopathic effect / XTT	107
Cc1ccc(C2CC2)c(-c2ccc3c(c2)CCCO3)c1[C@H](OC(C)(C)C)C(=O)O	NL4-3	NRTI/NNRTI resistant NLAY351717	MT-4	luminescence	2
Nc1nc2c(ncn2[C@H]2CO[C@@H](CO)O2)c(=O)[nH]1	-	RT-L74V	MT-2	cytopathic effect / XTT	~1.67
Cc1c(OCC2CCC2)c2cc(F)ccc2[nH]c1=O	NNRTI-resistant (RT K103N Y181C)	RT-K103N Y181C	HeLa + HeLa-MAGI	β-galactosidase	>3.28
CCOCn1c(Cc2ccccc2)c(C(C)C)c(=O)[nH]c1=O	IIIB	RT-Y181C	CEM	syncytia	110
CCc1cc(C#N)cc(C(=O)c2cc(Cl)ccc2OCC(=O)Nc2ccc(S(N)(=O)=O)cc2C)c1	HXB2	RT-P225H	HeLa + HELA CD4+	β-galactosidase	~1
CCOCn1c(Sc2ccccc2)c(CC)c(=O)[nH]c1=S	IIIB	RT-Y188H	CEM	syncytia	>2730
CCC1=C(C(=O)Nc2ccc(Cl)c(C(=O)OCC(C)C)c2)SCCO1	TIBO-resistant (RT L100I)	RT-L100I	CEM	syncytia	6
Cc1cc2cn[nH]c2cc1NC(=O)COc1ccc(Cl)cc1C(=O)c1cccc(C#N)c1	HXB2 (RT-K103N G190A) Recombinant	RT-K103N G190A	HeLa + HELA CD4+	β-galactosidase	~10
C[C@@H]1CCO[C@H]2Cn3cc(C(=O)NCc4ccc(F)cc4F)c(=O)c(O)c3C(=O)N12	-	L74F	TZM-bl	luciferase / luminescence	0.4
Cc1cc(C#N)cc(C(=O)c2cc(Cl)ccc2OCC(=O)Nc2ccc(S(N)(=O)=O)cc2C)c1	HXB2	RT-K103N	HeLa + HELA CD4+	β-galactosidase	~1
Nc1nc(NC2CC2)c2ncn([C@H]3CO[C@@H](CO)O3)c2n1	IIIB BCH-13520-resistant (RT K65R)	RT-K65R	MT-2	RT activity	3.6
CCOC(=O)c1cc(NC(=O)C2=C(C)OCCS2)ccc1Cl	PYR-resistant (RT Y181C)	RT-Y181C	CEM	syncytia	>100
COc1ccc(NC(=S)OC(C)C)cc1CC(=O)OC(C)C	-	RT-Y181C	CEM	syncytia	67.6
Cc1ccc(C2CC2)c(-c2cc(F)c3c(c2C)CCCO3)c1[C@H](OC1CC1)C(=O)O	NL4-3	PI-resistant ARP-4596 (L10R/M46I/L63P/V82T/I84V)	MT-4	luminescence	1
COC(=O)c1cc(NC(=O)C2=C(C)OCCS2)ccc1Cl	PYR-resistant (RT Y181C)	RT-Y181C	CEM	syncytia	>2.5
Nc1ncnc2c1ncn2[C@@H]1O[C@H](CO)[C@H]1CO	HXB2(RT-V75I) Recombinant	RT-V75I	MT-2	RT activity	4.86
Cc1occc1C(=S)Nc1ccc(Cl)c(C(=O)OC(C)C)c1	NL4-3	RT-L74V	CEM + CEM-SS	cytopathic effect / XTT	1
O=c1[nH]cnc2c1ncn2[C@@H]1O[C@H](CO)C[C@@H]1F	IIIB BCH-13520-resistant (RT V75I)	RT-V75I	MT-2	RT activity	7.75
CC1=C(C(=O)Nc2ccc(Cl)c(C(=O)OC3CCCC3)c2)SCCO1	TIBO-resistant (RT L100I)	RT-L100I	CEM	syncytia	125
Cc1occc1C(=S)Nc1ccc(Cl)c(/C=N/OC(C)(C)C)c1	CALO(RT-T139I)	RT-T139I	CEM + CEM-SS	cytopathic effect / XTT	1.5
CC1=C(C(=O)Nc2cc(C(=O)OC(C)C)c(Cl)cc2F)SCCO1	TSAO-resistant (RT E138K)	RT-E138K	CEM	syncytia	>15.4
Cc1occc1C(=S)Nc1ccc(Cl)c(C(=O)OCC2CC2)c1	NL4-3	RT-K101E	CEM + CEM-SS	cytopathic effect / XTT	18
Cc1cc(C#N)cc(C(=O)c2cc(Cl)ccc2OCC(=O)Nc2ccc(OCCCN3CC=CC3)cc2C)c1	HXB2	RT-V106I Y181C	HeLa + HELA CD4+	β-galactosidase	~10

Repeating the first 6 entries:

smiles,strain,changes,cells,method,value
CCCc1cc(=O)oc2c3c(c4c(c12)OC(C)(C)CC4)O[C@H](C)[C@@H](C)C3=O,-,RT-M184I,-,cytopathic effect / XTT,<6
CC(C)[C@H](NC(=O)OCc1ccccn1)C(=O)N[C@@H](Cc1ccccc1)[C@@H](O)C[C@H](Cc1ccccc1)NC(=O)OCc1cccnc1,NL4-3,PR-L63P V82T,MT-4,p24,1.875
CCCOC(=O)c1cc(NC(=O)C2=C(C)OCCS2)ccc1Cl,PYR-resistant (RT Y181C),RT-Y181C,CEM,syncytia,225
Cc1cc(S(N)(=O)=O)ccc1NC(=O)COc1ccc(Cl)cc1C(=O)c1cc(F)cc(C(F)(F)F)c1,HXB2,RT-K103N P225H,HeLa + HELA CD4+,β-galactosidase,~1
O=C1Nc2ccc(Cl)cc2[C@@](/C=C/C2CC2)(C(F)(F)F)N1,-,RT-K103N P225H,-,-,75
CC1=C(C(=O)Nc2ccc(Cl)c(C(=O)OC3CCCCC3)c2)SCCO1,TSAO-resistant (RT E138K),RT-E138K,CEM,syncytia,87.5